Sequences of proteins named here, by UniProt entry; tags and fusion partners are left off.
UniProt Q01959, whole entry: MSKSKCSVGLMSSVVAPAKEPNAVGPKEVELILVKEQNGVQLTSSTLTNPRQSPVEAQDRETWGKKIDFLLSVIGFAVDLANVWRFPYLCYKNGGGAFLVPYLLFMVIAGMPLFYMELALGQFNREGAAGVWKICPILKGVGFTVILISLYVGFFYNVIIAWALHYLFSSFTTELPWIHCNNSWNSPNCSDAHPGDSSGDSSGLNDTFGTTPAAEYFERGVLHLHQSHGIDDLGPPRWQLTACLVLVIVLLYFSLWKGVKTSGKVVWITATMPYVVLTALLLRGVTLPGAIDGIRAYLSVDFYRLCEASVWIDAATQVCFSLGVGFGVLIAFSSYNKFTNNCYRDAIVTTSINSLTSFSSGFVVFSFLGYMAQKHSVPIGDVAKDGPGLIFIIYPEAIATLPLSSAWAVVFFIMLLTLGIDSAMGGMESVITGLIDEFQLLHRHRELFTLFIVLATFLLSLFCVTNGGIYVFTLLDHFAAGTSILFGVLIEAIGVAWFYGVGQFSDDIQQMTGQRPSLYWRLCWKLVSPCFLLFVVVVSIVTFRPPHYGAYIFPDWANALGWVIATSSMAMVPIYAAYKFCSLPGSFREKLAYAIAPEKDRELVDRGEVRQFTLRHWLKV

In PMC4388869 (Journal of neuroimmune pharmacology : the official journal …, 2015):

Molecular target: WT hDAT (Homo sapiens, UniProt Q01959)
Assay: [3H]WIN 35,428 binding assay, WT hDAT
Details: PC12 cell suspension, on ice 2 h

2beta-carbomethoxy-3-beta-(4-fluorophenyl)tropane [WIN35,428]
Bmax of [3H]WIN 35,428 binding: 9.7 ± 1.6 pmol/10^5 cells
